Pooled drug test results. Numbers come from NIAID ChemDB, via PubChem.

Shared fields: whole-cell or culture tests; species: Hepatitis C virus; read-out: inhibition

Rows are shuffled and stem from different studies.

SMILES | cell line | method | strain or isolate | tested at | result
O=C1NC(=O)C(c2c[nH]c3ccccc23)=C1c1c[nH]c2ccccc12 | Huh7.5.1 | - | - | 1 µM | 70%
Cc1cn([C@H]2C[C@H](O)[C@@H](CO)O2)c(=O)[nH]c1=O | Huh7 | replicon | - | 50 µM | 95.8%
CCCC(NC(=O)[C@@H]1C2CCC(F)(F)C2CN1C(=O)[C@@H](NC(=O)[C@@H](NC(=O)c1cnccn1)C(C)C)C(C)C)C(=O)C(=O)NC1CC1 | Huh7 | replicon | - | 25 µM | 64%
O=c1cc(Sc2ccc(F)cc2F)c2cc(F)ccc2o1 | Ava5 | - | - | 10 µM | 81%
CO[C@H]1[C@@H](O)[C@@H](C)O[C@H](O[C@H]2[C@H](Oc3cccc4c(O)c5c(=O)oc6ccc(C)c7c(=O)oc(c34)c5c67)O[C@H](C)[C@H](O)[C@@H]2O)[C@@H]1O | Huh7-1 | PCR | sg2a (JFH) | 50 µM | <75%
COc1ccc2c(O[C@@H]3C[C@H]4C(=O)N[C@]5(C(=O)NS(=O)(=O)C6CC6)C[C@H]5/C=C\CCCCN(C)C(=O)[C@@H]4C3)cc(-c3nc(C(C)C)cs3)nc2c1C | Huh7 | luciferase / replicon | 1b | 0.003 µM | 42.91%
O=C1c2c(O)cc(O)cc2O[C@H](c2ccc(O)c(O)c2)[C@H]1O | Huh7 | PCR | G1 | 0.1 µM | 32%
Nc1nc2c(ncn2[C@H]2C[C@H](O)[C@@H](CO)O2)c(=O)[nH]1 | Huh7 | replicon | - | 50 µM | 89.3%
CO[C@@H]1[C@H](O)[C@@H](COP(=O)(O)OP(=O)(O)OP(=O)(O)O)O[C@H]1n1ccc(N)nc1=O | HepG2-T5B | MTT | - | 30 µg/mL | 51.83%
CCCC(NC(=O)[C@@H]1C2CCC(=O)C2CN1C(=O)[C@@H](NC(=O)[C@@H](NC(=O)c1cnccn1)C(C)C)C(C)C)C(=O)C(=O)Nc1ccccc1 | Huh7 | replicon | - | 25 µM | <0%
Cc1cc(N2CCOCC2)nc2ccc(Cc3ccc4nc(N5CCOCC5)cc(C)c4c3)cc12 | Huh7-1 | PCR | sg1a (H77) | 50 µM | <75%
CCCCCCCCCCCCCCCc1cccc(O)c1C(=O)O | Huh7 | luciferase | JFH-1 (gt 2a) | 7.5 µM | 70%
COc1ccc2oc(=O)cc(Sc3ccccc3F)c2c1 | Ava5 | - | - | 10 µM | 4.5%
Cc1cc(N2CCCCC2)nc2ccc(Cc3ccc4nc(N5CCCCC5)cc(C)c4c3)cc12 | Huh7-1 | PCR | sg1b | 50 µM | <75%
CC[C@H](C)C(=O)O[C@H]1C[C@@H](C)C=C2C=C[C@H](C)[C@H](CC[C@@H]3C[C@@H](O)CC(=O)O3)[C@H]21 | HUH7-K2040 | - | - | 10 µM | 0%
O=c1ccn([C@@H]2O[C@H](CO)[C@@H](O)[C@H]2O)c(=O)[nH]1 | Huh7 | replicon | - | 50 µM | 91.2%
CCCC(NC(=O)[C@@H]1[C@@H]2CCC[C@@H]2CN1C(=O)[C@@H](NC(=O)OC(C)C)C(C)C)C(=O)C(=O)N[C@@H](C)c1ccccc1 | Huh7 | replicon | - | 50 µM | 7%
C[C@@]1(O)[C@H](O)[C@@H](CO)O[C@H]1c1c[nH]c2c(N)ncnc12 | HepG2-5B | MTT | - | 10 µg/mL | 0%
Nc1ccn([C@@H]2O[C@H](CO)[C@@H](O)[C@H]2O)c(=O)n1 | Huh7 | replicon | - | 50 µM | 40%
CN1C(=O)C(c2c[nH]c3ccccc23)=C(c2c[nH]c3ccccc23)C1=O | Huh7.5.1 | - | - | 1 µM | 81%
O=c1cc(Sc2cc(Cl)ccc2Cl)c2cc(F)ccc2o1 | Ava5 | - | - | 10 µM | 37%
O=c1ccn([C@H]2C[C@H](O)[C@@H](CO)O2)c(=O)[nH]1 | Huh7 | replicon | - | 50 µM | 90.3%
Cc1cc(C)cc(Sc2c(Sc3ccc(F)cc3Cl)c3ccccc3oc2=O)c1 | Ava5 | - | - | 10 µM | 61%
CC(=O)OC1CCC2(C)C(CCC3C2CC(=O)C2(C)C3CC(N3CC3)C2C(C)=O)C1 | Huh7-1 | PCR | sg2a (JFH) | 50 µM | <75%
O=c1c(O)c(-c2ccc(O)cc2)oc2cc(O)cc(O)c12 | Huh7 | PCR | G1 | 0.1 µM | 35%
CC(C)OC(=O)[C@H](C)N[P@](=O)(OC[C@H]1O[C@@H](n2ccc(=O)[nH]c2=O)[C@](C)(F)[C@@H]1O)Oc1ccccc1 | Huh7 | luciferase / replicon | 1b Con1 | 0.24 µM | 86.53%

Again, the opening 2 rows:

SMILES	cell line	method	strain or isolate	tested at	result
O=C1NC(=O)C(c2c[nH]c3ccccc23)=C1c1c[nH]c2ccccc12	Huh7.5.1	-	-	1 µM	70%
Cc1cn([C@H]2C[C@H](O)[C@@H](CO)O2)c(=O)[nH]c1=O	Huh7	replicon	-	50 µM	95.8%

Inhibition is in % at the dose shown (toxicity tests: loss of growth or viability). Blank or dashed fields: not listed here.